In one series the test system is H9N2. The class given is cell-based, Influenza A virus A/Chicken/Guangdong/96 (H9N2). Particulars: ratio CC50 / IC50.
Another series has as its system PR8 (H1N1). In kind it is cell-based, Influenza A virus A/Puerto Rico/8/34 (PR8). The conditions noted are these: ratio CC50 / IC50.

The values that follow come from paper PMC6321071, “Chenodeoxycholic Acid from Bile Inhibits Influenza A Virus Replication via Blocking Nuclear Export of Viral Ribonucleoprotein Complexes” (Molecules, 2018).

Molecules are shown by their SMILES.

In the case of `C[C@H](CCC(=O)O)[C@H]1CC[C@H]2[C@@H]3[C@H](O)C[C@@H]4C[C@H](O)CC[C@]4(C)[C@H]3CC[C@]12C` [CDCA, Chenodeoxycholic acid], the “SI (H9N2)” value in the series with H9N2 is on record as 32.4. The “SI (PR8 (H1N1))” value in the series on PR8 (H1N1) is reported as 16.8.

For `C[C@H](CCC(=O)O)[C@H]1CC[C@H]2[C@@H]3[C@@H](O)C[C@@H]4C[C@H](O)CC[C@]4(C)[C@H]3CC[C@]12C` [UDCA, ursodeoxycholic acid], in the series with H9N2, the “SI (H9N2)” value is on record as 13.9. Also, in the series on PR8 (H1N1), the “SI (PR8 (H1N1))” value was 10.6.

As to `C[C@H](CCC(=O)O)[C@H]1CC[C@H]2[C@@H]3C[C@H](O)[C@@H]4C[C@H](O)CC[C@]4(C)[C@H]3CC[C@]12C` [HDCA, hyodeoxycholic acid], in the series on H9N2, the “SI (H9N2)” value came out at 9.2. For the same compound, the “SI (PR8 (H1N1))” value with PR8 (H1N1) came to 9.5.
